Anti-infective test results gathered from many reports (values: NIAID ChemDB through PubChem).

Shared fields: target-level tests; organism: Human cytomegalovirus; target: Polymerase; read-out: IC50

ICn is the concentration giving n% inhibition.

smiles,read by,value
O=C(/C=C/c1ccccc1Cl)Nc1nnc(NCCSc2ccccc2)s1,,>25 µM
O=C(NCc1ccc(Cl)cc1)c1cn(N2CCCCC2)c2ccc(C#CCO)cc2c1=O,,3.2 µM
O=C(NCc1ccc(Cl)cc1)c1c[nH]c2ccc(C#CCO)cc2c1=O,,0.96 µM
Cc1cc(Cl)ccc1/C(N)=N\OC(=O)c1cccc2ccccc12,scintillation proximity / radiometric,3.9 µM
CN(Cc1cc2c3c(c1)c(=O)c(C(=O)NCc1ccc(Cl)cc1)cn3CC(=O)N2C)C[C@@H](O)c1ccco1,,0.073 µM
O=C(/C=C/c1ccccc1Cl)Nc1nnc(NCCC(c2ccccc2)c2ccccc2)s1,,>25 µM
CN1CCN(n2cc(C(=O)NCc3ccc(Cl)cc3)c(=O)c3cc(CN4CCOCC4)ccc32)CC1,,0.73 µM
COC(=O)c1ccc2[nH]nc(C(=O)NCc3ccc(Cl)cc3)c(=O)c2c1,,50 µM
Cc1onc(-c2c(Cl)cccc2Cl)c1C(=O)O/N=C(\N)c1ccc(Cl)cc1Cl,scintillation proximity / radiometric,9.5 µM
Cc1ccc(CNC(=O)c2cn(N3CCOCC3)c3ccc(CN4CCOCC4)cc3c2=O)cc1,,15.2 µM
O=C(Nc1nnc(NCc2ccc(F)cc2)s1)c1c(Cl)cccc1Cl,,<25 µM
N/C(=N/OC(=O)c1cccc2ccccc12)c1cc(Cl)cc(Cl)c1,scintillation proximity / radiometric,>100 µM
O=C(NCc1ccc(Cl)cc1)c1c[nH]c2c(F)cc(-c3cccs3)cc2c1=O,,0.26 µM
Cn1cc(C(=O)NCc2ccc(Cl)cc2)c(=O)c2cc(CN3CCOCC3)ccc21,,0.58 µM
O=C(NCc1ccc(Cl)cc1)c1n[nH]c2ccc(I)cc2c1=O,,>100 µM
CN(Cc1cc2c3c(c1)c(=O)c(C(=O)NCc1ccc(Cl)cc1)cn3CC(=O)N2C)C[C@@H](O)c1ccccc1,,0.082 µM
N/C(=N/OC(=O)c1cccc2ccccc12)c1ccc(Br)cc1Cl,scintillation proximity / radiometric,2.6 µM
Cc1ccc(C(O)CN(C)Cc2cc3c4c(c2)c(=O)c(C(=O)NCc2ccc(Cl)cc2)cn4CC(=O)N3C)o1,,0.105 µM
O=C(NCc1ccc(Cl)cc1)c1c[nH]c2c(F)cc(CCCCO)cc2c1=O,,0.16 µM
O=C(NCc1ccccc1)c1cn(N2CCOCC2)c2ccc(CN3CCOCC3)cc2c1=O,,>20 µM
N/C(=N/OC(=O)c1cccc2ccccc12)c1ccc(Cl)cc1,scintillation proximity / radiometric,50 µM
COC[C@H]1CCCN1n1cc(C(=O)NCc2ccc(Cl)cc2)c(=O)c2cc(CN3CCOCC3)ccc21,,4 µM
CCCCCCCC/C=C/CCCCCCCC(=O)Nc1nnc(NCc2ccccn2)s1,,>25 µM
Cc1ccc(F)cc1C(=O)O/N=C(\N)c1ccc(Cl)cc1Cl,scintillation proximity / radiometric,4.4 µM
O=C(CCCCCl)Nc1nnc(NCC2CCCCC2)s1,,>25 µM
COc1ccc(C(=O)O/N=C(\N)c2ccc(Cl)cc2Cl)cc1,scintillation proximity / radiometric,>100 µM
CN(CCS(=O)(=O)[O-])C(=O)CCCCCCC(=O)OCC#Cc1ccc2c(c1)c(=O)c(C(=O)NCc1ccc(Cl)cc1)cn2C1CC1,,>20 µM
N/C(=N/OC(=O)c1cccc2ccccc12)c1cccc(Cl)c1,scintillation proximity / radiometric,>100 µM
COc1ccccc1C(=O)Nc1nnc(NCc2ccc(F)cc2)s1,,>25 µM
O=C(NCc1ccc(Cl)cc1)c1c[nH]c2c(F)cc(C#CCO)cc2c1=O,,0.89 µM

Repeating the final 4 entries:

smiles | read by | value
CN(CCS(=O)(=O)[O-])C(=O)CCCCCCC(=O)OCC#Cc1ccc2c(c1)c(=O)c(C(=O)NCc1ccc(Cl)cc1)cn2C1CC1 |  | >20 µM
N/C(=N/OC(=O)c1cccc2ccccc12)c1cccc(Cl)c1 | scintillation proximity / radiometric | >100 µM
COc1ccccc1C(=O)Nc1nnc(NCc2ccc(F)cc2)s1 |  | >25 µM
O=C(NCc1ccc(Cl)cc1)c1c[nH]c2c(F)cc(C#CCO)cc2c1=O |  | 0.89 µM

Conditions beyond the fields shown may differ between rows. An empty or dashed field is not shown.